Experimental data: PubChem BioAssay AID504761 (Drosophila RNAi Screening Center, 2011)

Screen: 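Genome-wide fly cell screen for genes dengue virus requires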 (primary screen)
Cell system: D.Mel-2 cells from Drosophila
Reagent: long dsRNA against Drosophila genes
Treatment: infection with dengue virus type 2; dose and infection time not stated
Detection: 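Per well on two replicate plates, imaging gave the percent of cells positive for viral envelope protein, ranked by infection, and a nuclear count of cells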
Direction: infection score: higher = more virus-infected cells; cell count: higher = more cells in the well
Active means: 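Very low infection ranking in both replicate wells (chance probability at most 0.065), then a retest showing infection dropped 1.5-fold or more at p below 0.05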
Calls: active = confirmed: knock-down lowers infection; inactive = not picked or not confirmed
In all, the deposit lists about 22,000 reagents; shown is an unselected part of those with a known target gene and a result. Over the whole deposit, 116 (0.52%) got an active call. 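Calls depend on retest data that are not deposited; infection was ranked per plate without normalising between plates; the unit of the infection score is not given.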 Raw values vary from plate to plate and are shown uncorrected. A plus sign joins genes that one reagent is predicted to hit. The record does not give: the amount of reagent, the time to read-out.

no.	Gene	dsRNA	infection score, replicate 1	infection score, replicate 2	cell count, replicate 1	cell count, replicate 2	activity call
1	Eaf6 (GeneID 38637)	DRSC09901	3.84	26.9	6072	5619	inactive
2	CG9743 (GeneID 43593)	DRSC16552	10.6	2.74	5252	6675	inactive
3	CG9743 (GeneID 43593)	DRSC28943			376	436	inactive
4	mthl14 (GeneID 318046)	DRSC07865	1.95	3.02	6117	5866	inactive
5	sordd1 (GeneID 32532)	DRSC28653	7.92	13.7	6085	5787	inactive
6	vex (GeneID 32033)	DRSC19481	1.04	1.34	6707	6577	inactive
7	vex (GeneID 32033)	DRSC19651	1.39	2.47	6423	6799	inactive
8	vex (GeneID 32033)	DRSC21843	8.63	0.41	5875	6601	inactive
9	vex (GeneID 32033)	DRSC25475	3.32	8.98	6050	5636	inactive
10	mRpS30 (GeneID 32530)	DRSC20107	3.61	1.82	5899	6052	inactive
11	CG31516 (GeneID 318776)	DRSC11994	3.62		6052		inactive
12	CG10650 (GeneID 35162)	DRSC02085	9.96	23.6	6347	4810	inactive
13	tw (GeneID 31024)	DRSC18537	7.62	16.4	5815	5631	inactive
14	CG8119 (GeneID 32500)	DRSC20083	8.97	4.26	6117	6411	inactive
15	CG8119 (GeneID 32500)	DRSC27407	11.9	13.3	3861	6662	inactive
16	CG32640 + CG32641	DRSC22885	2.12	3.05	5796	6200	inactive
17	Odj (GeneID 42145)	DRSC16234	13.8	8.46	5977	6573	inactive
18	Miox (GeneID 39391)	DRSC10747	0.71	2.41	6458	6438	inactive
19	Miox (GeneID 39391)	DRSC24306	8.27	14.7	6048	4608	inactive
20	AGO2 (GeneID 39683)	DRSC10847	18.4	22.2	6012	4033	inactive
21	Ravus (GeneID 41626)	DRSC15126	2.36	3.58	6919	7063	inactive
22	CG4793 (GeneID 34941)	DRSC01966	20.5		5780	616	inactive
23	Unc-115a (GeneID 261629)	DRSC12749	7.73	4.58	5599	5420	inactive
24	Unc-115a (GeneID 261629)	DRSC24907	6.1	8.86	6594	6431	inactive

Entries listed so far whose gene name begins with V or v (4):
Gene	dsRNA	infection score, replicate 1	infection score, replicate 2	cell count, replicate 1	cell count, replicate 2	activity call
vex (GeneID 32033)	DRSC19481	1.04	1.34	6707	6577	inactive
vex (GeneID 32033)	DRSC19651	1.39	2.47	6423	6799	inactive
vex (GeneID 32033)	DRSC21843	8.63	0.41	5875	6601	inactive
vex (GeneID 32033)	DRSC25475	3.32	8.98	6050	5636	inactive

Continued.
no.	Gene	dsRNA	infection score, replicate 1	infection score, replicate 2	cell count, replicate 1	cell count, replicate 2	activity call
25	Tsp42Ef (GeneID 35615)	DRSC06191	4.81	7.21	6137	4368	inactive
26	CG13627 (GeneID 42941)	DRSC14629	3.41	11.8	6546	5227	inactive
27	dgo (GeneID 36139)	DRSC06134	4.73	5.96	6041	6479	inactive
28	dgo (GeneID 36139)	DRSC26782	5.1	7.38	6392	6507	inactive
29	CG13369 (GeneID 31007)	DRSC18481	4.47	1.12	6459	7247	inactive
30	CG13369 (GeneID 31007)	DRSC29455	15.9	0.47	6560	422	inactive
31	pds5 (GeneID 36286)	DRSC06670	33.6	16.6	4439	4623	inactive
32	CG31817 (GeneID 260659)	DRSC01537	1.9	0.56	6488	5909	inactive
33	CG31817 (GeneID 260659)	DRSC01538	9.42	18.2	6190	6277	inactive
34	CG31817 (GeneID 260659)	DRSC22476	2.21	5.97	7027	1005	inactive
35	Elp6 (GeneID 41641)	DRSC16571	10.2	15.7	5894	5960	inactive
36	CG18294 + 825-Oak + CG32214 + 2 more	DRSC22210	2.05	9.51	6834	6371	inactive
37	CG30392 (GeneID 246587)	DRSC22341	0.76	4.57	6160	6832	inactive
38	RPA1 (GeneID 40972)	DRSC16830	36.5	29.6	2164	1996	inactive
39	CLS (GeneID 43104)	DRSC15642	8.41	16	4461	5818	inactive
40	CLS (GeneID 43104)	DRSC28289	18	15.8	3421	3345	inactive
41	Cyt-c1L (GeneID 43457)	DRSC14860		7.93	343	4490	inactive
42	Cyt-c1L (GeneID 43457)	DRSC22096	4.23	0.7	6828	7050	inactive
43	Cyt-c1L (GeneID 43457)	DRSC28229	9.38	8.3	5895	5013	inactive
44	CG16812 (GeneID 34722)	DRSC02519	12.4	2.41	5993	6348	inactive
45	CG16812 (GeneID 34722)	DRSC25180	1.54	1.63	5520	5902	inactive
46	CG5225 (GeneID 42053)	DRSC24962	7.39	2.01	6566	6060	inactive
47	CG32069 + Blos2	DRSC10621	1.83	2.83	6544	6575	inactive
48	Synd (GeneID 42467)	DRSC15116	1.66	5.26	6693	6439	inactive
49	CG4596 (GeneID 41312)	DRSC15608	2.15	11.1	6235	6284	inactive
50	CG4596 (GeneID 41312)	DRSC25914	4.57	3.87	6066	6048	inactive
51	Obp50d (GeneID 246436)	DRSC05483	1.86	2.32	6455	5650	inactive
52	CG18748 (GeneID 59144)	DRSC15385	6.92	32.1	6880	5727	inactive
53	He (GeneID 117464)	DRSC28434		14.2	409	3245	inactive
54	CG10470 (GeneID 35174)	DRSC02061	3.36	1.91	6188	6582	inactive
55	CG15914 (GeneID 32542)	DRSC19739	2.58	1.52	6276	6559	inactive
56	CG9822 (GeneID 37440)	DRSC04568	23.8	33.8	5302	5092	inactive
57	Acp1 (GeneID 34052)	DRSC01854	4.31	3.84	5991	6256	inactive
58	CG13299 (GeneID 38724)	DRSC09973	7.21	5.17	5729	6013	inactive
